From patent publication US10947274B1 (priority 2018, dated 2021) come the findings set out here.

By UniProt entry, the sequences of proteins in these tests, tags left out. Residues count along the entry.
UniProt Q9GZZ6, 25-450 limits assumed: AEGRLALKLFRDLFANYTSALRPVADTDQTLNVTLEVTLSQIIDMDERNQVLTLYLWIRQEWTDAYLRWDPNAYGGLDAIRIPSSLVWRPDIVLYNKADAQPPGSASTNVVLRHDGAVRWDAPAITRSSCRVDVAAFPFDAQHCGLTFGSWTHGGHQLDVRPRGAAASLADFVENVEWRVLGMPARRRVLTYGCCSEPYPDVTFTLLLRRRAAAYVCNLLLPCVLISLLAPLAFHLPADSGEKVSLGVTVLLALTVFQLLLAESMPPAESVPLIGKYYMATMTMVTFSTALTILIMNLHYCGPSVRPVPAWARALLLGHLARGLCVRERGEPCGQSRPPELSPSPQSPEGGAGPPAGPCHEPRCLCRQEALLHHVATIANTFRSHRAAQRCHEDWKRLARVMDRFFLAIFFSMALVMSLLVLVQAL
UniProt Q9UGM1, 26-479 limits assumed: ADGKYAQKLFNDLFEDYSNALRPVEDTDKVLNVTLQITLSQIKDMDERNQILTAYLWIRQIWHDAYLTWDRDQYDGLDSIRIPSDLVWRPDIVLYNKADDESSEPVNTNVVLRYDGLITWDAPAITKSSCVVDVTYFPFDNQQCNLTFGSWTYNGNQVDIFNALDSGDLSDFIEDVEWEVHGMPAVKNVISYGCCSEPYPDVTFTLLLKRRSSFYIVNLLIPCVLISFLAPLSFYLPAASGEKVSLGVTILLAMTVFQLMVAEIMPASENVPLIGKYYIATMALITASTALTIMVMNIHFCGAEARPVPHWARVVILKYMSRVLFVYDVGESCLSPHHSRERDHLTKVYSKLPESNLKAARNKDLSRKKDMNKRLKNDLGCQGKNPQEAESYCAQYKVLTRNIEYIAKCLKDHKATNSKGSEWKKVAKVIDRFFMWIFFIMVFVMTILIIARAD

The target in this assay is human α9α10 nAChR (Homo sapiens, UniProt Q9GZZ6+Q9UGM1). As to the kind of experiment: Block of acetylcholine response at cloned human α9α10 nAChR expressed in Xenopus oocytes (voltage clamp).
[1] abbreviates: average response at peptide concentration 1000 nM.
The mark [2] stands for this setting: Table 1, human α9α10 nAChR in Xenopus oocytes.
Where [3] appears, read: average response at peptide concentration 100 nM.

In the case of `C[C@@H](O)[C@@H]1NC(=O)[C@@H]2CSSC[C@@H](C(=O)N[C@@H](Cc3ccc(O)cc3)C(=O)O)NC(=O)[C@H](CCC(N)=O)NC(=O)[C@H](Cc3ccc(O)c(I)c3)NC(=O)[C@H](CCCNC(N)=O)NC(=O)[C@@H](NC(=O)[C@H](CCCNC(=N)N)NC(=O)[C@@H]3CCCN3C(=O)[C@H](CC(=O)O)NC1=O)C(C)(C)SSC(C)(C)[C@H](NC(=O)CN)C(=O)N2`, the “% block” value (Table 6, at 1000 nM) is “(19 ± 2.4%”. The “Ave Resp. (Concen., nM)” value under setting [1] was determined as 19%. Compound `C[C@@H](O)[C@@H]1NC(=O)[C@@H]2CSSC(C)(C)[C@H](C(=O)N[C@@H](Cc3ccc(O)cc3)C(=O)O)NC(=O)[C@H](CCC(N)=O)NC(=O)[C@H](Cc3ccc(O)c(I)c3)NC(=O)[C@H](CCCNC(N)=O)NC(=O)[C@H](CSSC[C@H](NC(=O)CN)C(=O)N2)NC(=O)[C@H](CCCNC(=N)N)NC(=O)[C@@H]2CCCN2C(=O)[C@H](CC(=O)O)NC1=O` came in with an IC50 under setting [2] greater than 100 nM. Further, the “Ave Resp. (Concen., nM)” value under setting [3] is 20%.

For the compound `C[C@@H](O)[C@@H]1NC(=O)[C@H]2NC(=O)[C@@H](NC(=O)CN)CSSC[C@H](NC(=O)[C@H](CCCNC(=N)N)NC(=O)[C@@H]3CCCN3C(=O)[C@H](CC(=O)O)NC1=O)C(=O)N[C@@H](CCCNC(=N)N)C(=O)N[C@@H](Cc1ccc(O)c(I)c1)C(=O)N[C@@H](CCC(N)=O)C(=O)N[C@H](C(=O)N[C@H](CC(=O)N[C@@H](CCCNC(=N)N)C(=O)O)Cc1ccc(O)cc1)CSSC2(C)C`, the IC50 (human α9α10 nAChR) turned out to be 0.055 nM. Compound `C[C@@H](O)[C@@H]1NC(=O)[C@H]2NC(=O)[C@@H](NC(=O)CN)CSSC[C@H](NC(=O)[C@H](CCCNC(=N)N)NC(=O)[C@@H]3CCCN3C(=O)[C@H](CC(=O)O)NC1=O)C(=O)N[C@@H](CCCNC(=N)N)C(=O)N[C@@H](Cc1ccc(O)c(I)c1)C(=O)N[C@@H](CCC(N)=O)C(=O)N[C@H](C(=O)N[C@H](CC(=O)N[C@H](CCCNC(=N)N)C(=O)O)Cc1ccc(O)cc1)CSSC2(C)C` returned a concentration for half-maximal inhibition (IC50) under setting [2] of 0.31 nM. Take `C[C@@H](O)[C@@H]1NC(=O)[C@H]2NC(=O)[C@@H](NC(=O)CN)CSSC[C@H](NC(=O)[C@H](CCCNC(=N)N)NC(=O)[C@@H]3CCCN3C(=O)[C@H](CC(=O)O)NC1=O)C(=O)N[C@@H](CCCNC(N)=O)C(=O)N[C@@H](Cc1ccc(O)c(I)c1)C(=O)N[C@@H](CCC(N)=O)C(=O)N[C@H](C(=O)N[C@H](Cc1ccc(O)cc1)C(=O)N[C@H](CCCNC(=N)N)C(=O)O)CSSC2(C)C`: under setting [2], the IC50 was 6.3 nM. `C[C@@H](O)[C@@H]1NC(=O)[C@H]2NC(=O)[C@@H](NC(=O)CN)CSSC[C@H](NC(=O)[C@H](CCCNC(=N)N)NC(=O)[C@@H]3CCCN3C(=O)[C@H](CC(=O)O)NC1=O)C(=O)N[C@@H](CCCNC(N)=O)C(=O)N[C@@H](Cc1ccc(O)c(I)c1)C(=O)N[C@@H](CCC(N)=O)C(=O)N[C@H](C(=O)N[C@@H](Cc1ccc(O)cc1)C(=O)N[C@@H](CCCNC(=N)N)C(=O)O)CSSC2(C)C` yielded an IC50 under setting [2] of 1.3 nM. The compound `C[C@@H](O)[C@@H]1NC(=O)[C@@H]2CSSC[C@@H](C(=O)N[C@@H](Cc3ccc(O)cc3)C(=O)O)NC(=O)[C@H](CCC(N)=O)NC(=O)[C@H](Cc3ccc(O)c(I)c3)NC(=O)[C@H](CCCNC(N)=O)NC(=O)[C@H](CSSC(C)(C)[C@@H](NC(=O)CN)C(=O)N2)NC(=O)[C@H](CCCNC(=N)N)NC(=O)[C@@H]2CCCN2C(=O)[C@H](CC(=O)O)NC1=O` gave an IC50 under setting [2] greater than 100 nM. Further, the “Ave Resp. (Concen., nM)” value under setting [3] worked out at 31%.

In the case of `C[C@@H](O)[C@@H]1NC(=O)[C@@H]2CSSC[C@@H](C(=O)N[C@@H](Cc3ccc(O)cc3)C(=O)O)NC(=O)[C@H](CCC(N)=O)NC(=O)[C@H](Cc3ccc(O)c(I)c3)NC(=O)[C@H](CCCNC(N)=O)NC(=O)[C@@H](NC(=O)[C@H](CCCNC(=N)N)NC(=O)[C@@H]3CCCN3C(=O)[C@H](CC(=O)O)NC1=O)C(C)(C)SSC[C@H](NC(=O)CN)C(=O)N2`, the IC50 was greater than 1000 nM under setting [2] and greater than 1000 nM (Table 6, human α9α10 nAChR). Besides, the “% response” value (Table 6, at 1000 nM) is reported as “(9.6 ± 4.3%”. In addition, the “Ave Resp. (Concen., nM)” value under setting [1] came out at 9.6%.

Under setting [2], `C[C@@H](O)[C@@H]1NC(=O)[C@@H]2NC(=O)[C@@H](NC(=O)CN)CSSC[C@H](NC(=O)[C@H](CCCNC(=N)N)NC(=O)[C@@H]3CCCN3C(=O)[C@H](CC(=O)O)NC1=O)C(=O)N[C@@H](CCCNC(N)=O)C(=O)N[C@@H](Cc1ccc(O)c(I)c1)C(=O)N[C@@H](CCC(N)=O)C(=O)N[C@H](C(=O)N[C@@H](Cc1ccc(O)cc1)C(=O)O)CSSC2(C)C` gave an IC50 greater than 1000 nM. Moreover, the “Ave Resp. (Concen., nM)” value under setting [1] is on record as 34%.

For orientation: IC50 means the concentration needed to halve the response being measured.
